Measured values from several laboratories, pooled; numbers as filed in NIAID ChemDB.

All rows: tests in culture; organism: HIV-1; cells: C8166; endpoint: EC50

Conditions beyond the fields shown may differ between rows. Blank or dashed fields: not listed here. ECn: concentration that inhibits the pathogen or its effect by n%.

C=C[C@]1(C)[C@@H](O)CC2=C(CCC3C(C)(C)C(=O)CC[C@]23C)[C@@H]1O ; read by: cytopathic effect ; result: 5.58 µM
CCN1c2ncc(CCOc3ccc(C(=O)N=c4ccn(O)cc4)cc3C)cc2C(=O)N(C)c2cccnc21 ; changes: RT-K103N Y181C ; read by: p24 ; result: <0.01 µM
COC(=O)CC(O)(CC(=O)O)C(=O)NCCCC[C@H](NC(=O)OCc1ccccc1)C(=O)N[C@@H](CCCCNC(=O)C(O)(CC(=O)O)CC(=O)OC)C(=O)OCc1ccccc1 ; strain or isolate: IIIB ; read by: p24 ; result: 25 µM
C=C[C@]1(C)[C@@H](O)CC2=C(CCC3C(C)(C)[C@@H](O)CC[C@]23C)[C@@H]1O ; read by: cytopathic effect ; result: 60.13 µM
CCCNP(=O)(NCCC)OC[C@H]1O[C@@H](n2cc(C)c(=O)[nH]c2=O)C[C@@H]1N=[N+]=[N-] ; strain or isolate: RF ; read by: ELISA ; result: 15 µM
C=CCOC(=O)CC(O)(CC(=O)O)C(=O)NCCCC[C@H](NC(=O)OCc1ccccc1)C(=O)N[C@@H](CCCCNC(=O)C(O)(CC(=O)O)CC(=O)OCC=C)C(=O)OCc1ccccc1 ; strain or isolate: IIIB ; read by: p24 ; result: 10 µM
COc1ccc(-c2c(C(OC(C)C)C(=O)O)c(C)nc3ccc(Cl)cc23)cc1F ; read by: luciferase / reporter gene ; result: <20 µM
Cc1cc(C)cc(S(=O)(=O)c2c(C(N)=O)[nH]c3ccc(Cl)cc23)c1 ; strain or isolate: Efavirenz-resistant (RT K103R V179D P225H) ; changes: RT-K103R V179D P225H ; read by: cytopathic effect / MTT ; result: <0.08 µM
COC(=O)CC(O)(CC(=O)O)C(=O)NCCCC[C@H](NC(=O)OCc1ccccc1)C(=O)OCc1ccccc1 ; strain or isolate: IIIB ; read by: p24 ; result: >100 µM
COC(C(=O)O)c1c(C)nc2ccccc2c1-c1ccc(Cl)cc1 ; read by: luciferase / reporter gene ; result: <20 µM
CCN1c2ncc(CCOc3ccc(-c4cc[n+]([O-])cc4)cc3)cc2C(=O)N(C)c2cccnc21 ; strain or isolate: IIIB ; read by: p24 ; result: <0.01 µM
CCO[C@H](C(=O)O)c1c(C)nc2ccc(Cl)cc2c1-c1ccc(OC)cc1 ; read by: luciferase / reporter gene ; result: <20 µM
Cc1ccccc1S(=O)(=O)c1c(C(N)=O)[nH]c2ccc(Cl)cc12 ; strain or isolate: Efavirenz-resistant (RT K103R V179D P225H) ; changes: RT-K103R V179D P225H ; read by: cytopathic effect / MTT ; result: <2.6 µM
CCN1c2ncc(CCOc3ccc(-c4cocn4)cc3C)cc2C(=O)N(C)c2cccnc21 ; changes: RT-K103N Y181C ; read by: p24 ; result: <0.01 µM
COc1cc(C(OC(=O)c2ccc3c(c2)OCO3)[C@H](C)C(C)O)ccc1O ; result: 4.22 µg/mL
NCCCC[C@H](NC(=O)OCc1ccccc1)C(=O)OCc1ccccc1 ; strain or isolate: IIIB ; read by: p24 ; result: >200 µM
Cc1cccc(S(=O)(=O)c2c(C(N)=O)[nH]c3ccc(Cl)cc23)c1 ; strain or isolate: Efavirenz-resistant (RT K103R V179D P225H) ; changes: RT-K103R V179D P225H ; read by: cytopathic effect / MTT ; result: <0.26 µM
Cc1nc2ccc(Br)cc2c(-c2ccc(Cl)cc2)c1[C@H](OC(C)(C)C)C(=O)O ; read by: luciferase / reporter gene ; result: <20 µM
COC(=O)[C@H](Cc1ccccc1)NP(=O)(N[C@@H](Cc1ccccc1)C(=O)OC)OC[C@H]1O[C@@H](n2cc(C)c(=O)[nH]c2=O)C[C@@H]1N=[N+]=[N-] ; strain or isolate: RF ; read by: ELISA ; result: 0.07 µM
Cc1cn([C@H]2C[C@H](N=[N+]=[N-])[C@@H](CO)O2)c(=O)[nH]c1=O ; result: 0.029 µg/mL
CCN1c2ncc(CCOc3ccc(S(=O)(=O)NCC(=O)O)cc3C)cc2C(=O)N(C)c2cccnc21 ; changes: RT-K103N Y181C ; read by: p24 ; result: >0.05 µM
Cc1cn([C@H]2C[C@H](N=[N+]=[N-])[C@@H](COP(=O)(N[C@@H](C)C(=O)OCc3ccccc3)OCC(Cl)(Cl)Cl)O2)c(=O)[nH]c1=O ; strain or isolate: RF ; read by: ELISA ; result: 0.03 µM
CCOP(=O)(NCCC(=O)OC)OC[C@H]1O[C@@H](n2cc(C)c(=O)[nH]c2=O)C[C@@H]1N=[N+]=[N-] ; strain or isolate: RF ; read by: ELISA ; result: 20 µM
CCCC(C(=O)O)c1c(C)nc2ccc(Cl)cc2c1-c1cccc(Cl)c1 ; read by: luciferase / reporter gene ; result: <20 µM
NCCCC[C@H](NC(=O)OCc1ccccc1)C(=O)NCCCCCC(=O)N[C@@H](CCCCN)C(=O)OCc1ccccc1 ; strain or isolate: IIIB ; read by: p24 ; result: 80 µM
COC(=O)[C@@H](NP(=O)(N[C@H](C(=O)OC)C(C)C)OC[C@H]1O[C@@H](n2cc(C)c(=O)[nH]c2=O)C[C@@H]1N=[N+]=[N-])C(C)C ; strain or isolate: RF ; read by: ELISA ; result: 0.1 µM
CCN1c2ncc(CCOc3ccc(S(=O)(=O)c4cccc(CC(=O)O)c4)cc3C)cc2C(=O)N(C)c2cccnc21 ; changes: RT-K103N Y181C ; read by: p24 ; result: >0.05 µM
CCCNP(=O)(OCC)OC[C@H]1O[C@@H](n2cc(C)c(=O)[nH]c2=O)C[C@@H]1N=[N+]=[N-] ; strain or isolate: RF ; read by: ELISA ; result: 50 µM
COc1ccc(-c2c(C(OC(C)C)C(=O)O)c(C)nc3ccc(Cl)cc23)cn1 ; read by: luciferase / reporter gene ; result: <20 µM
CCN(CC)P(=O)(OC[C@H]1O[C@@H](n2cc(C)c(=O)[nH]c2=O)C[C@@H]1N=[N+]=[N-])N(CC)CC ; strain or isolate: RF ; read by: ELISA ; result: 6 µM
O=C(O)CCC(=O)NCCCC[C@H](NC(=O)OCc1ccccc1)C(=O)OCc1ccccc1 ; strain or isolate: IIIB ; read by: p24 ; result: >100 µM
CCOP(=O)(NCCCCCC(=O)OC)OC[C@H]1O[C@@H](n2cc(C)c(=O)[nH]c2=O)C[C@@H]1N=[N+]=[N-] ; strain or isolate: RF ; read by: ELISA ; result: 100 µM
C=Cc1ccc(-c2c(C(CCC)C(=O)O)c(C)nc3ccc(Cl)cc23)cc1 ; read by: luciferase / reporter gene ; result: <20 µM

For reference, 4 entries again:

smiles,strain or isolate,changes,read by,result
Cc1ccccc1S(=O)(=O)c1c(C(N)=O)[nH]c2ccc(Cl)cc12,Efavirenz-resistant (RT K103R V179D P225H),RT-K103R V179D P225H,cytopathic effect / MTT,<2.6 µM
C=Cc1ccc(-c2c(C(CCC)C(=O)O)c(C)nc3ccc(Cl)cc23)cc1,-,-,luciferase / reporter gene,<20 µM
Cc1cn([C@H]2C[C@H](N=[N+]=[N-])[C@@H](COP(=O)(N[C@@H](C)C(=O)OCc3ccccc3)OCC(Cl)(Cl)Cl)O2)c(=O)[nH]c1=O,RF,-,ELISA,0.03 µM
CCN1c2ncc(CCOc3ccc(S(=O)(=O)NCC(=O)O)cc3C)cc2C(=O)N(C)c2cccnc21,-,RT-K103N Y181C,p24,>0.05 µM